Compound potency records, mixed from different reports. Data source: NIAID ChemDB in PubChem.

Common to all: tests on isolated targets; species: HIV-1; protein: Protease

Conditions beyond the fields shown may differ between rows. An empty or dashed field is not shown. Percent inhibition refers to the dose given; in toxicity tests it is the harm to the cells. Fold resistance: result on the changed form divided by that on wild type.

| structure | mutations | dose | read by | measure | result |
|---|---|---|---|---|---|
| CNC(=O)CN1[C@H](COc2ccccc2)[C@H](O)[C@@H](O)[C@@H](COc2ccccc2)N(CC(=O)NC)S1(=O)=O | PR-V82A |  |  | fold resistance | 4.4 |
| CC(C)CN(C[C@@H](O)[C@H](Cc1ccccc1)NC(=O)[C@H](CC(N)=O)NC(=O)c1ccc2ccccc2n1)C(=O)NC(C)(C)C | PR-V82A |  | HPLC | fold resistance | 1 |
| CC(C)[C@H](NC(=O)N(C)Cc1ccccn1)C(=O)N[C@@H](Cc1ccccc1)C(O)[C@H](Cc1ccccc1)NC(=O)[C@@H](NC(=O)N(C)Cc1ccccn1)C(C)C |  | 0.05 µM | fluorescence | inhibition | 53% |
| CNC(=O)[C@@H](NC(=O)[C@H](OCc1ccccc1)[C@H](O)[C@@H](O)[C@@H](OCc1ccccc1)C(=O)N[C@H]1c2ccccc2C[C@H]1O)C(C)C | PR-G48V L90M |  |  | fold resistance | 27.8 |
| Cc1cc(SC2=C(O)C[C@@](CCc3ccc(N)cc3)(C(C)C)OC2=O)c(C(C)(C)C)cc1CO | PR-V32I |  | HPLC / absorbance | fold resistance | 1.9 |
| CO[C@@H](Cc1ccccc1)C(F)(F)C(=O)[C@H](Cc1ccccc1)NC(=O)[C@@H](NC(=O)OCc1ccccc1)C(C)C |  | 0.01 µM | fluorescence | inhibition | 41% |
| CC(C)(C)OC(=O)N[C@@H](Cc1ccccc1)[C@H](O)CNC[C@@H](O)[C@H](Cc1ccc(OCC(=O)N2CCOCC2)cc1)NC(=O)OC(C)(C)C | PR-A71T V82A |  | HPLC | fold resistance | 33.5 |
| CC(C)[C@H](NC(=O)OCc1ccccc1)C(=O)N[C@@H](CSC1CCCCC1)[C@@H](O)[C@H](O)[C@H](CSC1CCCCC1)NC(=O)[C@@H](NC(=O)OCc1ccccc1)C(C)C |  | 0.1 µM | fluorescence | inhibition | 87% |
| Cc1cc(SC2=C(O)C[C@@](CCc3ccc(O)cc3)(C(C)C)OC2=O)c(C(C)(C)C)cc1CO | PR-G48V L90M |  | HPLC / absorbance | fold resistance | 18.6 |
| CN1[C@H](COc2ccccc2)[C@H](O)[C@@H](O)[C@@H](COc2ccccc2)N(C)S1(=O)=O | PR-I84V |  |  | fold resistance | 28.2 |
| Cc1cc(SC2=C(O)CC(CCc3ccc(O)cc3)(C3CCCCC3)OC2=O)c(C(C)(C)C)cc1CO | PR-V82F |  | HPLC / absorbance | fold resistance | 26 |
| CC(C)[C@H](NC(=O)OCc1ccccc1)C(=O)N[C@@H](CSc1ncccn1)[C@@H](O)[C@H](O)[C@H](CSc1ncccn1)NC(=O)[C@@H](NC(=O)OCc1ccccc1)C(C)C |  | 0.1 µM | fluorescence | inhibition | 70% |
| O=S1(=O)N(Cc2ccc(CO)cc2)[C@H](COc2ccccc2)[C@H](O)[C@@H](O)[C@@H](COc2ccccc2)N1Cc1ccc(CO)cc1 | PR-I84V |  |  | fold resistance | 14.8 |
| CC(C)[C@H](NC(=O)OCc1ccccc1)C(=O)N[C@@H](Cc1ccccc1)C(O)[C@H](Cc1ccccc1)NC(=O)[C@@H](NC(=O)OC(C)(C)C)C(C)C |  | 0.1 µM | fluorescence | inhibition | 53% |
| C/C(=N\O)c1cccc(CN2[C@H](COc3ccccc3)[C@H](O)[C@@H](O)[C@@H](COc3ccccc3)N(Cc3cccc(/C(C)=N/O)c3)S2(=O)=O)c1 | PR-V82A |  |  | fold resistance | 11.5 |

Repeating the final 2 entries:

structure | mutations | dose | read by | measure | result
CC(C)[C@H](NC(=O)OCc1ccccc1)C(=O)N[C@@H](Cc1ccccc1)C(O)[C@H](Cc1ccccc1)NC(=O)[C@@H](NC(=O)OC(C)(C)C)C(C)C |  | 0.1 µM | fluorescence | inhibition | 53%
C/C(=N\O)c1cccc(CN2[C@H](COc3ccccc3)[C@H](O)[C@@H](O)[C@@H](COc3ccccc3)N(Cc3cccc(/C(C)=N/O)c3)S2(=O)=O)c1 | PR-V82A |  |  | fold resistance | 11.5